US9260446B2, “Synthetic methods for spiro-oxindole compounds” (Xenon Pharmaceuticals Inc., priority 2009, dated 2016)

The chains behind the UniProt entries cited, without tags or fusion partners. Where a name states a change or a piece, a line headed by the entry shows the natural chain unless it says otherwise.
UniProt Q9Y5Y9: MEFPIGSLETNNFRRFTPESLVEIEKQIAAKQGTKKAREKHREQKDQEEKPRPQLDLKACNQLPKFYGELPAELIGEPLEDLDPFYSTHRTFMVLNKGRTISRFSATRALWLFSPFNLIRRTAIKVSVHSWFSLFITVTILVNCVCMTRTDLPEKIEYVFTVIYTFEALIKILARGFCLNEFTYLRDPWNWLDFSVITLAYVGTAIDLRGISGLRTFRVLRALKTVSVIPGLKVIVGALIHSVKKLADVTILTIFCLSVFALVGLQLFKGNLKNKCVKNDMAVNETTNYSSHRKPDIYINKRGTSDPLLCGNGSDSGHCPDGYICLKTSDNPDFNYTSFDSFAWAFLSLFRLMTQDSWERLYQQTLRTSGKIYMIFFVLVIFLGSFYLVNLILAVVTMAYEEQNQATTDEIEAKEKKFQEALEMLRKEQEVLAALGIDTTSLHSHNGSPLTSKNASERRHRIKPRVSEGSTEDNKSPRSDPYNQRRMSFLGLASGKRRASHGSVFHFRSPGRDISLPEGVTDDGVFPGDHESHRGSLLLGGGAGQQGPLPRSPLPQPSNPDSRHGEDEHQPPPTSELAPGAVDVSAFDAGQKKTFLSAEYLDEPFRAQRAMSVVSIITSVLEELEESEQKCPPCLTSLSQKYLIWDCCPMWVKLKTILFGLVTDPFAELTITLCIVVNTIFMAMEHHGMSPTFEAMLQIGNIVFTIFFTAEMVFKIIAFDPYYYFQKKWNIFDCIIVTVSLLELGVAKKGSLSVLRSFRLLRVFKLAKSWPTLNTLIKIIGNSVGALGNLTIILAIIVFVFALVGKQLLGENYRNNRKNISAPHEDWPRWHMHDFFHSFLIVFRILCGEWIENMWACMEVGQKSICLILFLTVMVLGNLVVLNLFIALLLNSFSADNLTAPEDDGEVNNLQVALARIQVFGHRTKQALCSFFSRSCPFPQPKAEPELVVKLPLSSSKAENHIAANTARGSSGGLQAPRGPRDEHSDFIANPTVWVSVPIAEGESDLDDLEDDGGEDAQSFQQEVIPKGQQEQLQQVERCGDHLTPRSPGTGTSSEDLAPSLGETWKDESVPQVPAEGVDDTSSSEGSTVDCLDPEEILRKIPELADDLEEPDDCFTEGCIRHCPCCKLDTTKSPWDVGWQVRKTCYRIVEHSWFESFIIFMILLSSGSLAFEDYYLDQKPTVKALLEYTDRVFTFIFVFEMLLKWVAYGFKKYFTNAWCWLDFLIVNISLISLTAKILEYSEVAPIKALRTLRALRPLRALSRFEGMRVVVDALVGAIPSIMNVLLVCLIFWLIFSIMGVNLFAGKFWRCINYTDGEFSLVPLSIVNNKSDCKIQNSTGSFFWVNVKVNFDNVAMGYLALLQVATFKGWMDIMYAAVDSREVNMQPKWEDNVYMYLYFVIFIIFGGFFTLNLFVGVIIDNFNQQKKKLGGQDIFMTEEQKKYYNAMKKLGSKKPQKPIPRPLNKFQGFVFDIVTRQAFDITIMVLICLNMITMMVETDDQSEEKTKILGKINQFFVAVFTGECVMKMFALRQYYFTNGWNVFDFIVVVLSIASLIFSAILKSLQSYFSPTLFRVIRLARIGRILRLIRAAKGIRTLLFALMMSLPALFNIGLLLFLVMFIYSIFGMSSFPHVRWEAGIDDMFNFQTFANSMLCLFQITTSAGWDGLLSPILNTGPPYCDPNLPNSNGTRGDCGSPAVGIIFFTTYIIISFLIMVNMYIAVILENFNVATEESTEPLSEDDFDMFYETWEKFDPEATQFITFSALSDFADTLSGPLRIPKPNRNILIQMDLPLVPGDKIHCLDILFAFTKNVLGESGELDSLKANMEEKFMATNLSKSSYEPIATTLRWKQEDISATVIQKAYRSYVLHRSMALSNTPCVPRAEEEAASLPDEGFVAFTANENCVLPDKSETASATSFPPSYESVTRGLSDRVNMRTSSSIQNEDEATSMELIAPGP
UniProt Q15858: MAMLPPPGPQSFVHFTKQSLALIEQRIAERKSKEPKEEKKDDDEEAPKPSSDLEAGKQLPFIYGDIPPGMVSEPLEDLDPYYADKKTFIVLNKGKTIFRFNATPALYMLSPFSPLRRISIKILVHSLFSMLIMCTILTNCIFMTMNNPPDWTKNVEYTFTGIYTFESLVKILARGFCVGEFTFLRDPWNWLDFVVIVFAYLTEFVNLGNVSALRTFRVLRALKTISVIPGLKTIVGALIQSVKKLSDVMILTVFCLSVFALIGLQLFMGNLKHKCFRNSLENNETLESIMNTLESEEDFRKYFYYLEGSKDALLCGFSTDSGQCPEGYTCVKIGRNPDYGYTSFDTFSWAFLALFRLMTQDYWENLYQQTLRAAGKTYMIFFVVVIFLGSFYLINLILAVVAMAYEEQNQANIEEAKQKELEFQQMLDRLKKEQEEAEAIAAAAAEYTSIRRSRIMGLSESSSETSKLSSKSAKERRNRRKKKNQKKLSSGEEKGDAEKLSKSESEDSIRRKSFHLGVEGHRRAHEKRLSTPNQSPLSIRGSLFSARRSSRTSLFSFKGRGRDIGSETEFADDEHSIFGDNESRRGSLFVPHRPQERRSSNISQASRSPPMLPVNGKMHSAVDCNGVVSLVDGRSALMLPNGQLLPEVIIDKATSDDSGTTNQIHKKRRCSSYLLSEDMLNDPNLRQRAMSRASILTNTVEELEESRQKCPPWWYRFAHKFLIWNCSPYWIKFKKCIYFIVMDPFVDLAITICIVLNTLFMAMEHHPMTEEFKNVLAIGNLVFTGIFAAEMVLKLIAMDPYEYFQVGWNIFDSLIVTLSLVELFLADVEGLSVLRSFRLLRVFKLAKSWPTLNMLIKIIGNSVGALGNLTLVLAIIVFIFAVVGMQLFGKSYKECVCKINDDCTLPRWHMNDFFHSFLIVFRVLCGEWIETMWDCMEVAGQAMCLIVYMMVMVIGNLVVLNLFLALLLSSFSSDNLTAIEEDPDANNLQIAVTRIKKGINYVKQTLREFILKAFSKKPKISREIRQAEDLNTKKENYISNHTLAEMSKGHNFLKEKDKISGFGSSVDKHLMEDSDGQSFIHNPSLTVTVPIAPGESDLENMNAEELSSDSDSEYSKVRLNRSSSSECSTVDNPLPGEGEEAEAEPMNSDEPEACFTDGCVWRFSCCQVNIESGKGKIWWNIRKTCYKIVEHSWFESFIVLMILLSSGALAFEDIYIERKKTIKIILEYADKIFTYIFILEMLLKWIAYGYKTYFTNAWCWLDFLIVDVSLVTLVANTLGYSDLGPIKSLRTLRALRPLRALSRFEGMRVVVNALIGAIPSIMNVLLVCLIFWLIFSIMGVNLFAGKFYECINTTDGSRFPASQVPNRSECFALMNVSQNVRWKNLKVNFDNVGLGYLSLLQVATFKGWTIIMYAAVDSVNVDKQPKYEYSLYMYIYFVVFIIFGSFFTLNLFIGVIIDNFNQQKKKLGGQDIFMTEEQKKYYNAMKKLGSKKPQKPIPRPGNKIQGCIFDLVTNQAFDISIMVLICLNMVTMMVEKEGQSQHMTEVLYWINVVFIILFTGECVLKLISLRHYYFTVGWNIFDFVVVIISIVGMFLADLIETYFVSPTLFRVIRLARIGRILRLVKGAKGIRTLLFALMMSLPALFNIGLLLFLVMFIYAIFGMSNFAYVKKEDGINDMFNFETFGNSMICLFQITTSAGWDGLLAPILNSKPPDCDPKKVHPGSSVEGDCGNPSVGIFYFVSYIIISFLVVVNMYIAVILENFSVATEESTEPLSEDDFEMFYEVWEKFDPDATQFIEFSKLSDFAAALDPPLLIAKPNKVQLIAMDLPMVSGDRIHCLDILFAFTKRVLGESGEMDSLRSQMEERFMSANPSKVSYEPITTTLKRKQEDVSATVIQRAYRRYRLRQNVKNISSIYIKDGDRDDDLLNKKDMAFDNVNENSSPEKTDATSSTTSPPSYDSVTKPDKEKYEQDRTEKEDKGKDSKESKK

Assays:
Nav1.4 and 1.5 = assay: Guanidine influx assay, L6 cells; settings: 10- to 15-fold increase in influx, TTX at 100 nM
Nav1.8 = Nav1.8 (Homo sapiens (Human), UniProt Q9Y5Y9); assay: Guanidine influx assay, SK-N-BE2C cells; settings: SK-N-BE2C cells stimulated with pyrethroids; 6-fold increase in influx
Nav1.2 and Nav1.7 = assay: Guanidine influx assay, PC12 cells; settings: 8- to 12-fold increase in influx
Nav1.4 = assay: Guanidine influx assay, CHO-K1 cells; settings: 18- to 20-fold increase in influx
hNav1.7 = hNav1.7 (Homo sapiens (Human), UniProt Q15858); assay: Guanidine influx assay, hNav1.7
Nav1.9 and Nav1.7 = assay: Guanidine influx assay, SH-SY5Y cells; settings: 10- to 16-fold increase in influx

TTX was tested, and the “block of [14C] guanidine influx” value (Nav1.4 and 1.5) was “partially blocked by TTX at 100”, the “block of [14C] guanidine influx” value (Nav1.8) was “TTX partially blocked influx” and the “block of [14C] guanidine influx” value (Nav1.2 and Nav1.7) was “guanidine influx was completely”. For the same substance, the “block of [14C] guanidine influx” value (Nav1.4) was “completely blocked using TTX”, the IC50 (hNav1.7) was 8 nM and the “block of [14C] guanidine influx above background” value (Nav1.9 and Nav1.7) was “background was partially blocked”.
